The values that follow come from article PMC9386795 (ACS Omega, 2022).

This assay has as its system P. aeruginosa efflux knockout GKCW120 (PΔ6). The assay is described as follows: Broth microdilution MIC assay against PA efflux knockout strain. The format is cell-based, Pseudomonas aeruginosa. The settings on record: n = 3; no visible pathogen growth. On the technique in general: Dilution methods test growth across graded concentrations, often in twofold steps.

As to `COC(=O)[C@H](Cc1c[nH]c2ccccc12)NCc1cc2ccccc2nc1OC` [Compound 18, Methyl ((2-Methoxyquinolin-3-yl)methyl)-L-tryptophanate], the “PΔ6 MIC” value is > 256 µg/mL.

On to `COC(=O)[C@H](Cc1c[nH]c2ccccc12)NCc1cc2ccccc2nc1SC` [Compound 19, Methyl ((2-(Methylthio)quinolin-3-yl)methyl)-L-tryptophanate], for which the “PΔ6 MIC” value was > 256 µg/mL.
